Source: PubChem BioAssay AID504761 (Drosophila RNAi Screening Center, 2011)
In all, the deposit lists about 22,000 reagents; shown is a random part of those that have a named target and a result. Of all reagents, 116 (0.52%) were called active. 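Calls depend on retest data that are not deposited; infection was ranked per plate without normalising between plates; the unit of the infection score is not given.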 The raw values are shown without normalisation. Unmarked entries are inactive. Names joined by + are all predicted targets of the reagent. The record does not give: the amount of reagent, the time to read-out.

Assay: 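Genome-wide fly cell screen for genes dengue virus requires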 (primary screen)
Cell system: D.Mel-2 cells from Drosophila
Reagent: long dsRNA against Drosophila genes
Treatment: infection with dengue virus type 2; dose and infection time not stated
Detection: 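Per well on two replicate plates, imaging gave the percent of cells positive for viral envelope protein, ranked by infection, and a nuclear count of cells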
Direction: infection score: higher = more virus-infected cells; cell count: higher = more cells in the well
Hit rule: 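Low infection ranks in the two replicates (chance level up to 0.065) followed by a retest with a 1.5-fold or larger significant decrease, p below 0.05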
Meaning of the calls: active = confirmed: knock-down lowers infection; inactive = not picked or not confirmed

target	PubChem SID	infection score, replicate 1	infection score, replicate 2	cell count, replicate 1	cell count, replicate 2
Atac3	SID104188371	7.91	2.02	6159	6988
CG32373	SID104188687	1.56	0.44	6008	6145
CG9875	SID104184377	11.5	19	6007	5845
CG18367	SID104186337	1.25	14.8	6583	6123
CG18367	SID104207051	7.84	8.36	5751	5480
CG32639	SID104198764	1.51	3.94	6428	6240
Ppt1	SID104197598	8.45	2.98	5808	6338
MESK2 + CG10494	SID104184051	18	8.73	5575	5839
GluClalpha	SID104196472	4.05	4.38	2373	6489
mgl	SID104197592	1.77	20.4	565	3886
mgl	SID104197615	1.17	1.75	5880	6473
mgl	SID104197651	4.41	4.85	5471	5757
mgl	SID104202748	3.26	3.78	6441	6487
LManII	SID104181778	19.4	7.65	6420	6494
Nepl13	SID104195424	7.73	6.15	3934	6566
fzy	SID104183326	18.8	13.8	2767	6140
ttk	SID104193870	0.15	2.12	6674	6405
ttk	SID104196883	3.27	1.07	3366	3375
ttk	SID104205622	5.51	5.04	5936	6463
CG15877	SID104188277	3.33	3.54	6011	6530
CG4743	SID104195428	22.4	12.9	5105	5240
Or83c	SID104192151	4.52	5.62	6328	6047
CG16775	SID104190017	7.37	7.12	6226	6573
GalT1	SID104201765	2.63	4.01	6961	6705
CG31327	SID104192811	1.11	2.14	6141	5784
CG14879	SID104194795	1.06	7.49	6044	5969
CG14879	SID104206627	27.5	18.6	5928	6460
MtnD	SID104202110	6.43	9.37	6828	6246
Ir11a	SID104199491	2.23	1.53	6503	6586
CG13786	SID104182081	2.53	13.1	5893	6062
CG13786	SID104206306	17.4	7.68	6559	6533
Pgant3	SID104185734	21.1	10.3	6299	6341
Pgant3	SID104207796	10.5	16.3	5422	4435
Ran-like	SID104190710	11.6	16.9	1971	6108
CG17562	SID104195035	1.98	6.72	6456	6456

Next part (4 carried over from the part before).
target	PubChem SID	infection score, replicate 1	infection score, replicate 2	cell count, replicate 1	cell count, replicate 2
Pgant3	SID104185734	21.1	10.3	6299	6341
Pgant3	SID104207796	10.5	16.3	5422	4435
Ran-like	SID104190710	11.6	16.9	1971	6108
CG17562	SID104195035	1.98	6.72	6456	6456
Dcps	SID104192091	8.39	5.61	4852	6843
BNIP3	SID104191553	7.13	1.44	6256	6322
CG32037	SID104190155	2.91	2.34	6282	6113
CG13856	SID104194498	24.1	10.1	6182	5423
Polr2F	SID104192158	28.3	15.6	3593	4507
Polr2F	SID104207328	17.2	15	4902	4559
CG32276	SID104187819	0.87	1.6	6346	6058
CG32563	SID104199726	16	3.77	5486	6919
CG32563	SID104208260	5.28	8.96	6423	5957
Arfip	SID104194971	24.7	15.9	6161	6384
Arfip	SID104205612	8.9	1.41	6931	6378
slp1	SID104180627	0.63	7.93	6644	4601
slp1	SID104203073	0.82	4.02	6220	6516
fz3	SID104198571	5.48	7.69	5711	6290
fz3	SID104208226	7.16		1201	375
CG13070	SID104189745	3.13	0.17	5564	6384
CG7715	SID104196093	1.33	5.59	525	5819
CG9686	SID104198231	16.2	14	4646	4851
CG9686	SID104207041	9.88	20.4	4141	4695
Snp	SID104184316	4.21	10.1	6682	6645
Snp	SID104201255	0.82	9.05	5591	6210
Aos1	SID104193905	6.49	13.2	1788	1512
Aos1	SID104208178	14.8	23.6	4417	4211
